From publication PMC9693223, “The Trypanosoma cruzi TcrNT2 Nucleoside Transporter Is a Conduit for the Uptake of 5-F-2′-Deoxyuridine and Tubercidin Analogues” (Molecules, 2022)
Several values for one entry are separate records, joined by “and”; a condition that tells them apart may be missing. Equal values may be shown once. Read-outs that look alike come from different tables or passages of the source.

Experiments:
[1] = system: L. mexicana Cas9^ΔNT1 promastigotes; assay: Alamar blue drug sensitivity assay, L. mexicana Cas9^ΔNT1 promastigotes; format: cell-based, Leishmania mexicana; settings: EC50 Cas9^ΔNT1 relative to L. mexicana Cas9
From the text: (§1) We used L. mexicana promastigotes of the Cas9 strain developed by Beneke at al. to generate the ΔNT1 strain, and from there the Cas9^ΔNT1+TcrNT2 (see below); The original Cas9 strain was generously donated by Prof. Eva Gluenz (University of Bern, Switzerland). All strains in standard HOMEM (GIBCO, Life Technologies, Paisley, UK) supplemented with 10% heat-inactivated fetal bovine serum (FBS; PAA Laboratories, Linz, Austria) and 1% of a penicillin–streptomycin solution (10,000 U mL^−1 each; Life Technologies) at 25 °C, as described.
(§2) The Alamar blue assay (resazurin sodium salt) was used to determine the drug sensitivity of the L. mexicana promastigotes in vitro. The assay is based on the reduction of resazurin sodium salt (blue and non-fluorescent) to resorufin (pink color and fluorescent) by live cells. HOMEM medium with 10% FBS (100 μL) was added to all wells of a white 96-well plate apart from the first well. 200 μL of a known concentration of test compounds was diluted in HOMEM medium and placed in the first well. […] Fluorescence was measured in a FLUOstar OPTIMA plate reader (BMG Labtech, Germany), at a wavelength of 544 nm for excitation and 620 nm for emission. The EC50 values and fluorescence data were determined and plotted by the GraphPad Prism 8 Software using an equation for a sigmoid curve with variable slope. […]

[2] = system: L. mexicana Cas9^ΔNT1+TcrNT2 promastigotes; assay: Alamar blue drug sensitivity assay, L. mexicana Cas9^ΔNT1+TcrNT2 promastigotes; format: cell-based, Leishmania mexicana; settings: Cas9^ΔNT1+TcrNT2 in comparison to L. mexicana Cas9^ΔNT1
From the text: as §1, §2

[3] = system: L. mexicana Cas9^ΔNT1 promastigotes; set-up: method as in de Almeida Fiuza et al. [41]; settings: EC50 Cas9^ΔNT1 relative to Cas9; starred values; ref de Almeida Fiuza et al. [41]; cited from earlier work

Structure (SMILES) | RF vs. Cas9 (resistance factor) [1] | RF vs. ΔNT1 (resistance factor) [2] | RF vs. Cas9 (resistance factor) [3]
Nc1ncnc2c1c(Br)cn2[C@@H]1O[C@H](CO)[C@@H](O)[C@H]1O [TH1003, 7-bromo-tubercidin] | 18.4 | 7.68 | –
Nc1ncnc2c1ccn2[C@@H]1O[C@H](CO)[C@@H](O)[C@H]1O [Tubercidin, tubercidin] | 60 | – | 25 and 25.2
